Several values for one entry are separate records, joined by “and”; a condition that tells them apart may be missing. Identical values can stand only once.
B1: unnamed (protein)
parent chain 1: MNLKPQTLMVAIQCVAARTRELDAQLQNDDPQNAAELEQLLVGYDLAADDLKNAYEQALGQYSGLPPYDRLIEEPAS
parent chain 2: MSYDYEKTSLTLYRAVFKANYDGDVGRYLHPDKELAEAAEVAPLLHPTFDSPNTPGVPARAPDIVAGRDGLYAPDTGGAAVFDRAGVLRRADGDFVIPDGTDIPPDLKVKQDSYNKRLQATHYTIMPAKPMYREVLMGQLDNFVRNAIRRQWEKARGL
B2: unnamed (protein)
parent chain 1: B1 parent chain 1
parent chain 2: B1 parent chain 1

Target: partner chain of the complex shown
Test: bacterial two-hybrid (B2H), LacZ activity
Details: read off a plot

Row | Binder | response (luminescence, arbitrary units) (parent: 2.8) | response (luminescence, arbitrary units) (parent: 3) | response (luminescence, arbitrary units) (parent: 3.3)
1 | B1 | 0.95 | 2.6 and 3.4 | –
2 | B2 | – | – | 3.3 and 3 and 3.2

From paper PMC3325213 (2012)
